Results of unrelated studies side by side (data: NIAID ChemDB).

Common to all: tests in culture; organism: HIV-1

Blank or dashed fields: not listed here. ECn is the concentration giving n% inhibition of infection, replication or growth. Rows are shuffled and stem from different studies.

SMILES	changes	strain	cells	read by	measure	value
Cc1cc(OCCN(C)C)ccc1NC(=O)COc1ccc(Cl)c(Oc2cc(Cl)cc(C#N)c2)c1			MT-4	p24	EC50	<20 µM
CCCCCCCCCCCCOCC(COP(=O)([O-])OCC[N+](C)(C)C)OCCCCCCCCCC			CEM + CEM-SS	plaque count / syncytia	EC50	0.32 µM
CC(C)C1=C2[C@H]3CC[C@@H]4[C@@]5(C)CC[C@H](OC(=O)[C@H]6C[C@@H](C(=O)O)C6(C)C)C(C)(C)[C@@H]5CC[C@@]4(C)[C@]3(C)CC[C@@]2(CCNCc2cccnc2N2CCOCC2)CC1=O		92HT599	MT-2	p24 / ELISA	EC50	<1 µM
N#Cc1cc(Cl)cc(Oc2cc(F)cc(OCc3[nH]nc4nc(N)ccc34)c2)c1			MT-4	p24	EC50	<20 µM
CC(C)C1=C2[C@H]3CC[C@@H]4[C@@]5(C)CC[C@H](OC(=O)[C@H]6C[C@@H](C(=O)O)C6(C)C)C(C)(C)[C@@H]5CC[C@@]4(C)[C@]3(C)CC[C@@]2(CCN(CCN(C)C)Cc2nccs2)CC1=O		92HT599	MT-2	p24 / ELISA	EC50	<1 µM
Cc1occc1C(=S)Nc1ccc(Cl)c(/C=N/OC(C)(C)C)c1	RT-Y181C	IIIB	CEM	syncytia	EC50	0.214 µM
CC(C)C1=C2[C@H]3CC[C@@H]4[C@@]5(C)CC[C@H](OC(=O)[C@H]6C[C@@H](C(=O)O)C6(C)C)C(C)(C)[C@@H]5CC[C@@]4(C)[C@]3(C)CC[C@@]2(CCNC(=O)c2cccc(Cl)c2)CC1=O		92HT599	MT-2	p24 / ELISA	EC50	<1 µM
CC(C)(C)CCO[C@@H]1O[C@H](COS(=O)(=O)O)[C@@H](OS(=O)(=O)O)[C@H](O[C@@H]2O[C@H](COS(=O)(=O)O)[C@@H](OS(=O)(=O)O)[C@H](O[C@@H]3O[C@H](COS(=O)(=O)O)[C@@H](OS(=O)(=O)O)[C@H](O[C@@H]4O[C@H](COS(=O)(=O)O)[C@@H](OS(=O)(=O)O)[C@H](O[C@@H]5O[C@H](COS(=O)(=O)O)[C@@H](OS(=O)(=O)O)[C@H](OS(=O)(=O)O)[C@H]5OS(=O)(=O)O)[C@H]4OS(=O)(=O)O)[C@H]3OS(=O)(=O)O)[C@H]2OS(=O)(=O)O)[C@H]1OS(=O)(=O)O		IIIB	MT-4	cytopathic effect / MTT	EC50	0.78 µg/mL
O=C1Nc2ccc(Cl)cc2[C@@](C#CC2CC2)(C(F)(F)F)O1		94ug114.1.6	HEK293T	luciferase	EC50	5.73 nM
CCO[C@@H]1Cc2cc(C(F)(F)F)ccc2C1N1CCN(C2(C)CCN(C(=O)c3c(C)ncnc3C)CC2)C[C@@H]1C		92/US/727	PBMC	p24	EC50	0.001 µM
CC(C)C1=C2[C@H]3CC[C@@H]4[C@@]5(C)CC[C@H](OC(=O)[C@H]6C[C@@H](C(=O)O)C6(C)C)C(C)(C)[C@@H]5CC[C@@]4(C)[C@]3(C)CC[C@@]2(CC(=O)NCC2(NC(=O)c3ccc(Cl)cc3)COC2)CC1=O		92HT599	MT-2	p24 / ELISA	EC50	<1 µM
CCCCCCO[C@@H]1O[C@H](COS(=O)(=O)O)[C@@H](OS(=O)(=O)O)[C@H](O[C@@H]2O[C@H](COS(=O)(=O)O)[C@@H](OS(=O)(=O)O)[C@H](O[C@@H]3O[C@H](COS(=O)(=O)O)[C@@H](OS(=O)(=O)O)[C@H](O[C@@H]4O[C@H](COS(=O)(=O)O)[C@@H](OS(=O)(=O)O)[C@H](OS(=O)(=O)O)[C@H]4OS(=O)(=O)O)[C@H]3OS(=O)(=O)O)[C@H]2OS(=O)(=O)O)[C@H]1OS(=O)(=O)O		IIIB	MT-4	cytopathic effect / MTT	EC50	36 µg/mL
O=C1c2ccccc2C(=O)c2c1ccc(O)c2O		IIIB	MT-4	cytopathic effect	EC50	19 µg/mL
N#Cc1cc(Cl)cc(Oc2cc(Cl)cc(OCC(=O)Nc3ccc(C#N)cc3Cl)c2)c1			MT-4	p24	EC95	<20 µM
CCCCO[C@@H]1O[C@H](COS(=O)(=O)O)[C@@H](OS(=O)(=O)O)[C@H](O[C@@H]2O[C@H](COS(=O)(=O)O)[C@@H](OS(=O)(=O)O)[C@H](O[C@@H]3O[C@H](COS(=O)(=O)O)[C@@H](OS(=O)(=O)O)[C@H](O[C@@H]4O[C@H](COS(=O)(=O)O)[C@@H](OS(=O)(=O)O)[C@H](OS(=O)(=O)O)[C@H]4OS(=O)(=O)O)[C@H]3OS(=O)(=O)O)[C@H]2OS(=O)(=O)O)[C@H]1OS(=O)(=O)O		IIIB	MT-4	cytopathic effect / MTT	EC50	43 µg/mL
N#Cc1cc(Cl)cc(Oc2cc(OCc3[nH]nc4ncccc34)cc(F)c2Cl)c1			MT-4	p24	EC50	<20 µM
CCN1CCN(CCNC[C@H](O)[C@@]23CC[C@]4(C)[C@H](CC[C@@H]5[C@@]6(C)CC[C@H](OC(=O)[C@H]7C[C@@H](C(=O)O)C7(C)C)C(C)(C)[C@@H]6CC[C@]54C)C2=C(C(C)C)C(=O)C3)CC1		92HT599	MT-2	p24 / ELISA	EC50	<1 µM
C=C(C)[C@@H]1CC[C@]2(COC(=O)CC(C)(C)C(=O)O)CC[C@@H]3[C@H](CC[C@H]4[C@H]3CC[C@H]3C(C)(C)[C@@H](O)CC[C@]43C)[C@@H]12			H9		EC50	<0.18 µM
N#Cc1cc(Cl)cc(Oc2cc(CCc3[nH]nc4ncccc34)ccc2Cl)c1			MT-4	p24	EC50	<20 µM
CC(C)C1=C2[C@H]3CC[C@@H]4[C@@]5(C)CC[C@H](OC(=O)[C@H]6C[C@@H](C(=O)O)C6(C)C)C(C)(C)[C@@H]5CC[C@@]4(C)[C@]3(C)CC[C@@]2(CCNCC(C)(C)NC(=O)c2cc(C(C)C)[nH]n2)CC1=O		92HT599	MT-2	p24 / ELISA	EC50	<1 µM
N#Cc1cc(Cl)cc(Oc2cc(OCc3[nH]nc4nc(N5CCOCC5)ccc34)ccc2Cl)c1			MT-4	p24	EC95	<20 µM
O=C1c2ccccc2C(=O)c2c1cc(S(=O)(=O)O)c(O)c2O		IIIB	SupT1 + Sup-T1	cytopathic effect	EC50	>50 µg/mL
N#Cc1cc(Cl)cc(Oc2cc(F)c(Cl)c(OCc3[nH]nc4ncccc34)c2)c1			MT-4	p24	EC95	<20 µM
CCCCO[C@@H]1O[C@H](COS(=O)(=O)O)[C@@H](OS(=O)(=O)O)[C@H](O[C@@H]2O[C@H](COS(=O)(=O)O)[C@@H](OS(=O)(=O)O)[C@H](O[C@@H]3O[C@H](COS(=O)(=O)O)[C@@H](OS(=O)(=O)O)[C@H](O[C@@H]4O[C@H](COS(=O)(=O)O)[C@@H](OS(=O)(=O)O)[C@H](O[C@@H]5O[C@H](COS(=O)(=O)O)[C@@H](OS(=O)(=O)O)[C@H](OS(=O)(=O)O)[C@H]5OS(=O)(=O)O)[C@H]4OS(=O)(=O)O)[C@H]3OS(=O)(=O)O)[C@H]2OS(=O)(=O)O)[C@H]1OS(=O)(=O)O		IIIB	MT-4	cytopathic effect / MTT	EC50	3.4 µg/mL
CC(C)=CCOc1cc(NC(=S)c2ccoc2C)ccc1Cl	RT-Y188L	IIIB	CEM	syncytia	EC50	1.5 µM
N#Cc1cc(Cl)cc(Oc2cc(OCc3nc4cccc(Cl)c4s3)ccc2Cl)c1			MT-4	p24	EC50	<20 µM

For reference, 2 entries again:

SMILES | changes | strain | cells | read by | measure | value
CC(C)C1=C2[C@H]3CC[C@@H]4[C@@]5(C)CC[C@H](OC(=O)[C@H]6C[C@@H](C(=O)O)C6(C)C)C(C)(C)[C@@H]5CC[C@@]4(C)[C@]3(C)CC[C@@]2(CCNCC(C)(C)NC(=O)c2cc(C(C)C)[nH]n2)CC1=O |  | 92HT599 | MT-2 | p24 / ELISA | EC50 | <1 µM
N#Cc1cc(Cl)cc(Oc2cc(OCc3nc4cccc(Cl)c4s3)ccc2Cl)c1 |  |  | MT-4 | p24 | EC50 | <20 µM